This is a selection; strong and weak results do not stand in their true shares. Activity calls are given as the source filed them. No stated cut-off is given here; in the data, active means maximum fold increase above about 1.5; inconclusive means no clear call, values can overlap the other calls; inactive means below that; tested in PC3 cells.
Assay: enhancers of HSV replication in host cells, fold increase, host cell viability (AID 1956)
Settings: HSV replication augmentation in cells; at 12.5 µM, hits give high values

Structure (SMILES) | maximum fold increase
O=C(OC1CN2CCC1CC2)C1c2ccccc2C=Cc2ccccc21 (stereo not drawn) | inactive
COc1ccc(C(=O)NCC2(N3CCOCC3)CCCCC2)cc1OC | inactive
c1ccc(CN2CCC(Nc3ccccc3)CC2)cc1 | inactive
N#Cc1ccc(C(=O)NCC2(N3CCCCC3)CCCCC2)cc1 | inactive
CCN1CCC(Nc2cccc(F)c2)CC1 | inactive
CN(C)c1ccc(C(=O)NCC2(N3CCCCC3)CCCCC2)cc1 | inactive
Fc1ccccc1NC1CCN(Cc2ccccc2)CC1 | inactive
COc1cc(OC)cc(C(=O)NCC2(N3CCOCC3)CCCCC2)c1 | inactive
CCC(CO)(C(=O)OC1CN2CCC1CC2)c1ccccc1 (stereo not drawn) | inactive
CCCOc1ccc(C)cc1CN(CCCl)CCCl | inactive
CCOc1ncccc1C(=O)NCC1(N2CCOCC2)CCCCC1 | inactive: 1.1
CC(C)(C)OC(=O)N1CCC(Nc2ccccc2)CC1 | inactive
O=C(NCC1(N2CCOCC2)CCCCC1)c1cc2ccccc2o1 | inactive
N#CC1(Nc2ccccc2)CCN(Cc2ccccc2)CC1 | inactive
O=C(OC1CN2CCC1CC2)C1c2ccccc2Oc2ccccc21 (stereo not drawn) | inactive
CCOC(=O)N1CCC(Nc2ccc(OC)cc2)CC1 | inactive
COc1ccc(C(=O)NCC2(N3CCCCC3)CCCCC2)c(OC)c1OC | inactive
Cc1ccc(OCC(C)C)c(CN(CCCl)CCCl)c1 | inactive
CCOc1ccc(C)cc1CN(CCCl)CCCl | inactive
COc1ccc(NC2CCN(CCc3ccccc3)CC2)c(OC)c1 | inactive
O=C(NCC1(N2CCOCC2)CCCCC1)c1cc(=O)[nH]c2ccccc12 | inactive
COc1ccc(NC2CCN(C(=O)OC(C)(C)C)CC2)cc1 | inactive
CN1CCN(CCOC(=O)C(O)(c2ccccc2)c2ccccc2)CC1 | inactive
N#CC1(Nc2ccccc2)CCN(CCc2ccccc2)CC1 | inactive
CN1CCC(Nc2cccc(F)c2)CC1 | inactive
CC(C)c1ccc(NC2CCN(C(=O)OC(C)(C)C)CC2)cc1 | inactive
CN(C)c1cccc(C(=O)NCC2(N3CCCCC3)CCCCC2)c1 | inactive
COc1ccc(CN(CCCl)CCCl)cc1Cl | inactive

— PubChem BioAssay AID1956 (SRMLSC, 2009)
